Anti-infective test results gathered from many reports (values: NIAID ChemDB through PubChem).

Common to all: growth or infection tests; organism: Aspergillus clavatus

An empty or dashed field is not shown. Neighbouring rows are from separate reports. MIC50, MIC90 and the like: level of inhibition, or share of isolates inhibited.

| smiles | strain | measure | read by | result |
|---|---|---|---|---|
| Cc1ccc(C2C(C#N)=C(N)Oc3c2c(C)nn3-c2ccccc2)cc1 | MTCC 1323 | MIC |  | 1000 µg/mL |
| O=C1NC(=O)/C(=C\c2ccc(F)cc2)S1 | MTCC 1323 | MIC | broth dilution / visual reading | 500 µg/mL |
| COc1cccc(/C=C2/S/C(=N/NC(=O)c3sc(NC(=O)c4ccc(F)cc4)nc3C)N(c3ccccc3)C2=O)c1 | MTCC 1323 | MIC50 |  | 100 µg/mL |
| Cc1ccc2nc(Cl)c(C3SC(=Cc4ccccc4O)C(=O)N3n3c(-c4ccc(Cl)cc4)nc4ccccc4c3=O)cc2c1 |  | MIC99 | broth dilution / visual reading | 100 µg/mL |
| N#CSc1ccc2nc(NC(=O)CN3C(=O)S/C(=C/c4ccc(F)cc4)C3=O)sc2c1 | MTCC 1323 | MIC | broth dilution / visual reading | 1000 µg/mL |
| O=C1CSC(N2N=C(c3cccc([N+](=O)[O-])c3)CC2c2cc3ccccc3nc2Cl)=N1 | MTCC 1323 | MIC100 |  | 50 µg/mL |
| COc1cccc(C2CC(c3nc4ccccc4[nH]3)=NN2C(=O)COc2ccc(NC(C)=O)cc2)c1 | MTCC 1323 | MIC100 |  | 500 µg/mL |
| Cc1ccc2nc(NC(=O)CSc3nnc(-c4ccc5ncccc5c4)o3)sc2c1 |  | MIC | agar | 100 µg/mL |
| COc1cc(/C=C2/SC(=O)NC2=O)ccc1O | MTCC 1323 | MIC | broth dilution / visual reading | 500 µg/mL |
| COc1cc(C=C2SC(c3cc4cc(C)ccc4nc3Cl)N(n3c(-c4ccc(Cl)cc4)nc4ccccc4c3=O)C2=O)cc(OC)c1OC |  | MIC99 | broth dilution / visual reading | 500 µg/mL |
| COc1cc(/C=C2/SC(=O)N(CC(=O)Nc3nc4ccc(SC#N)cc4s3)C2=O)ccc1O | MTCC 1323 | MIC | broth dilution / visual reading | 500 µg/mL |
| Cc1nc(NC(=O)c2ccc(F)cc2)sc1C(=O)N/N=C1/S/C(=C/c2ccccc2O)C(=O)N1c1ccccc1 | MTCC 1323 | MIC50 |  | 100 µg/mL |
| CC(=O)Nc1ccc(OCC(=O)N2N=C(c3nc4ccccc4[nH]3)CC2c2cccc(F)c2)cc1 | MTCC 1323 | MIC100 |  | 100 µg/mL |
| O=C1CSC(N2N=C(c3ccccc3Cl)CC2c2cc3ccccc3nc2Cl)=N1 | MTCC 1323 | MIC100 |  | 100 µg/mL |
| CC(=O)Nc1ccc(OCC(=O)N2N=C(c3nc4ccccc4[nH]3)CC2c2ccccc2)cc1 | MTCC 1323 | MIC100 |  | 500 µg/mL |
| O=C(CSc1nnc(-c2ccc3ncccc3c2)o1)Nc1ccc(Cl)cc1 |  | MIC | agar | 50 µg/mL |
| CC(=O)Nc1ccc(OCC(=O)N2N=C(c3nc4ccccc4[nH]3)CC2c2ccc(O)cc2)cc1 | MTCC 1323 | MIC100 |  | 500 µg/mL |
| Cc1ccc2nc(Cl)c(C3SC(=Cc4ccccc4Cl)C(=O)N3n3c(-c4ccc(Cl)cc4)nc4ccccc4c3=O)cc2c1 |  | MIC99 | broth dilution / visual reading | 100 µg/mL |
| O=C1CSC(N2N=C(c3ccccc3O)CC2c2cc3ccccc3nc2Cl)=N1 | MTCC 1323 | MIC100 |  | 500 µg/mL |
| COc1ccc(C2C(C#N)=C(N)Oc3c2c(C)nn3-c2ccccc2)cc1 | MTCC 1323 | MIC |  | 1000 µg/mL |
| CC(=O)Nc1ccc(OCC(=O)N2N=C(c3nc4ccccc4[nH]3)CC2c2ccc(Cl)cc2)cc1 | MTCC 1323 | MIC100 |  | 50 µg/mL |
| N#Cc1ccc2nc(NC(=O)CSc3nnc(-c4ccc5ncccc5c4)o3)sc2c1 |  | MIC | agar | 50 µg/mL |
| Cc1nn(-c2ccccc2)c2c1C(c1ccc(F)cc1)C(C#N)=C(N)O2 | MTCC 1323 | MIC |  | 500 µg/mL |
| O=C1CSC(N2N=C(c3ccc(Cl)cc3)CC2c2cc3ccccc3nc2Cl)=N1 | MTCC 1323 | MIC100 |  | 50 µg/mL |
| O=C(CSc1nnc(-c2ccc3ncccc3c2)o1)Nc1nc2ccc(Br)cc2s1 |  | MIC | agar | 50 µg/mL |
| Cc1ccc2nc(Cl)c(C3SC(=Cc4cccc(O)c4)C(=O)N3n3c(-c4ccc(Cl)cc4)nc4ccccc4c3=O)cc2c1 |  | MIC99 | broth dilution / visual reading | 200 µg/mL |
| O=C1CSC(N2N=C(c3ccc([N+](=O)[O-])cc3)CC2c2cc3ccccc3nc2Cl)=N1 | MTCC 1323 | MIC100 |  | 12.5 µg/mL |
| O=C(CSc1nnc(-c2ccc3ncccc3c2)o1)Nc1ccccc1 |  | MIC | agar | 100 µg/mL |
| COc1ccc(C=C2SC(c3cc4cc(C)ccc4nc3Cl)N(n3c(-c4ccc(Cl)cc4)nc4ccccc4c3=O)C2=O)cc1 |  | MIC99 | broth dilution / visual reading | 200 µg/mL |
| Cc1nc(NC(=O)c2ccc(F)cc2)sc1C(=O)N/N=C1/S/C(=C/c2ccc(Cl)cc2)C(=O)N1c1ccccc1 | MTCC 1323 | MIC50 |  | 500 µg/mL |
| Cc1nn(-c2ccccc2)c2c1C(c1ccc(O)cc1)c1c(nc(=O)[nH]c1N)O2 | MTCC 1323 | MIC |  | >1000 µg/mL |
| CC(=O)Nc1ccc(OCC(=O)N2N=C(c3nc4ccccc4[nH]3)CC2c2ccccc2C)cc1 | MTCC 1323 | MIC100 |  | 250 µg/mL |
| Cc1cccc(/C=C2/S/C(=N/NC(=O)c3sc(NC(=O)c4ccc(F)cc4)nc3C)N(c3ccccc3)C2=O)c1 | MTCC 1323 | MIC50 |  | 250 µg/mL |
| COc1cc(/C=C2/SC(=O)N(CC(=O)Nc3nc4ccc(SC#N)cc4s3)C2=O)cc(OC)c1OC | MTCC 1323 | MIC | broth dilution / visual reading | >1000 µg/mL |
| COc1ccc(C2CC(c3nc4ccccc4[nH]3)=NN2C(=O)COc2ccc(NC(C)=O)cc2)cc1 | MTCC 1323 | MIC100 |  | 1000 µg/mL |
| Cc1ccc2nc(Cl)c(C3SC(=Cc4ccc(Cl)cc4)C(=O)N3n3c(-c4ccc(Cl)cc4)nc4ccccc4c3=O)cc2c1 |  | MIC99 | broth dilution / visual reading | 500 µg/mL |
| COc1ccc(/C=C2/S/C(=N/NC(=O)c3sc(NC(=O)c4ccc(F)cc4)nc3C)N(c3ccccc3)C2=O)cc1 | MTCC 1323 | MIC50 |  | 100 µg/mL |
| O=C(CSc1nnc(-c2ccc3ncccc3c2)o1)Nc1ccc([N+](=O)[O-])cc1 |  | MIC | agar | 25 µg/mL |